Compound potency records, mixed from different reports. Data source: NIAID ChemDB in PubChem.

Common to all: tests in culture; species: HIV-1

ECn: concentration that inhibits the pathogen or its effect by n%. Neighbouring rows are from separate reports. Two numbers with a dash give a range or band. Blank or dashed fields: not listed here.

| structure | cells | read-out | strain | mutations | read by | result |
|---|---|---|---|---|---|---|
| O=C(OC1OC2COC(=O)c3cc(O)c(O)c(O)c3-c3c(cc(O)c(O)c3O)C(=O)OC2C(OC(=O)c2cc(O)c(O)c(O)c2)C1O)c1cc(O)c(O)c(O)c1 | MT-4 | EC50 | IIIB |  | cytopathic effect / MTT | >25 µg/mL |
| CC(C)=CCOc1cc(NC(=S)c2ccoc2C)ccc1Cl | CEM + CEM-SS | EC50 | NL4-3 (RT A98G) | RT-A98G | cytopathic effect / XTT | 0.02 µM |
| C=CCOC(=O)N[C@@H](Cc1ccccc1)[C@H](O)CN(CC1CCCC1)S(=O)(=O)c1ccc(F)cc1 | CEM | EC50 | IIIB |  | p24 | <1 µM |
| CCC1=C(C(=O)OCC2CCCCC2)C(c2ccc(F)c([N+](=O)[O-])c2)NC(=O)N1 | CEM | EC50 |  |  | p24 / ELISA | ≤1 µM |
| O=C(OC[C@H]1O[C@@H](OC(=O)c2cc(O)c(O)c(O)c2)[C@H](OC(=O)c2cc(O)c(O)c(O)c2Oc2cc3c(c(O)c2O)-c2c(cc(O)c(O)c2O)C(=O)O[C@H]2[C@H](OC(=O)c4cc(O)c(O)c(O)c4)[C@@H](OC(=O)c4cc(O)c(O)c(O)c4)[C@H](OC(=O)c4cc(O)c(O)c(O)c4)O[C@@H]2COC3=O)[C@@H](OC(=O)c2cc(O)c(O)c(O)c2)[C@@H]1O)c1cc(O)c(O)c(O)c1 | MT-4 | EC50 | IIIB |  | cytopathic effect / MTT | >100 µg/mL |
| CCc1c(Cc2cc(C)cc(C)c2)n(COC/C(Br)=C(\Br)c2ccccc2)c(=O)[nH]c1=O | MT-4 | EC50 | IIIB | Y181C | MTT | 1.4 µM |
| NC(=O)C[C@H](NC(=O)c1ccc2ccccc2n1)C(=O)N[C@@H](Cc1ccccc1)[C@H](O)CN(Cc1ccccc1)S(=O)(=O)c1cccc(C(F)(F)F)c1 | CEM | EC50 | IIIB |  | p24 | <10 µM |
| CCc1c(Cc2cc(C)cc(C)c2)n(COCC#Cc2cc(C(F)(F)F)cc(C(F)(F)F)c2)c(=O)[nH]c1=O | MT-4 | EC50 | IIIB | K103N + Y181C | MTT | >70 µM |
| C=C(COC)COC(=O)N[C@@H](Cc1ccccc1)[C@H](O)CN(CC(C)C)S(=O)(=O)c1ccc(NC(C)=O)cc1 | CEM | EC50 | IIIB |  | p24 | <1 µM |
| Cc1nc(NC(=O)NCCc2ccccc2)sc1C | MT-4 | EC50 |  |  | RT activity | <10 µg/mL |
| O=CC(OC(=O)c1cc(O)c(O)c(O)c1Oc1cc2c(c(O)c1O)-c1c(cc(O)c(O)c1O)C(=O)COC1OC(OC(=O)c3cc(O)c(O)c(O)c3Oc3cc4c(=O)oc5c(O)c(O)cc6c(=O)oc(c3O)c4c56)C(OC(=O)c3cc(O)c(O)c(O)c3)C(OC(=O)c3cc(O)c(O)c(O)c3)C1OC2=O)C(OC(=O)c1cc(O)c(O)c(O)c1)C(O)C(O)CO | MT-4 | EC50 | IIIB |  | cytopathic effect / MTT | 11.8 µg/mL |
| CNC(=O)N(CCCC[C@H](NC(C)=O)C(=O)NCc1ccccc1)Cc1ccccc1 | CEM-IW + CEM | EC50 | IIIB |  | cytopathic effect / XTT | >100 µM |
| O=C1O[C@@H]2O[C@@H]3COC(=O)c4cc(O)c(O)c(O)c4-c4c(cc(O)c(O)c4O)C(=O)O[C@H]3[C@H](OC(=O)c3cc(O)c(O)c(O)c3)[C@H]2OC(=O)c2cc(Oc3c(C(=O)O[C@H]4[C@H](OC(=O)c5cc(O)c(O)c(O)c5)O[C@H](CO)[C@@H](O)[C@@H]4OC(=O)c4cc(O)c(O)c(O)c4)cc(O)c(O)c3O)c(O)c(O)c2Oc2cc1cc(O)c2O | MT-4 | EC50 | IIIB |  | cytopathic effect / MTT | >100 µg/mL |
| CC(=O)N[C@@H](CCCCNC(=O)NCCCl)C(=O)NCc1ccccc1 | CEM-IW + CEM | EC50 | IIIB |  | cytopathic effect / XTT | >100 µM |
| CC1=C(C(=O)OCC2CCCCC2)C(c2cccnc2)NC(=O)N1 | CEM | EC50 |  |  | p24 / ELISA | 1–5 µM |
| N#Cc1csc(NC(=O)NCCc2ccccc2)n1 | MT-4 | EC50 |  |  | RT activity | <0.1 µg/mL |
| CC(=O)N[C@@H](CCCNC(=O)NCCCl)C(=O)NCc1ccccc1 | CEM-IW + CEM | EC50 | IIIB |  | cytopathic effect / XTT | >100 µM |
| CC(C)=CCOc1cc(NC(=S)c2ccsc2C)ccc1Cl | CEM + CEM-SS | EC50 | NL4-3 (RT V108I) | RT-V108I | cytopathic effect / XTT | 0.006 µM |
| O=C(NCCc1ccccc1)Nc1ccn[nH]1 | MT-4 | EC50 |  |  | cytopathic effect / XTT | >100 µg/mL |
| CCCCCCCCCCCCOC(=O)c1cc(O)c(O)c(O)c1 | MT-4 | EC50 | IIIB |  | cytopathic effect / MTT | >3.1 µg/mL |
| O=C1[C@@H](Cc2ccccc2)NC(=S)N1c1ccccc1 | MT-4 | EC50 |  |  | RT activity | <10 µg/mL |
| Cc1ncc(-c2ccc(OCCCF)cn2)c(N2CCC(C)(C)CC2)c1[C@H](OC(C)(C)C)C(=O)O | MT-2 | EC50 | NL4-3 |  | luminescence | 0.0039 µM |
| O=CC1OC(=O)c2cc(O)c(O)c(O)c2Oc2cc3c(c(O)c2O)-c2c(cc(O)c(O)c2O)C(=O)OC2C(COC3=O)OC(OC(=O)c3cc(O)c(O)c(O)c3)C(OC(=O)c3cc(O)c(O)c(O)c3Oc3cc4c(c(O)c3O)-c3c(ccc(O)c3O)C(=O)OCC(O)C(OC4=O)C1OC(=O)c1cc(O)c(O)c(O)c1)C2OC(=O)c1cc(O)c(O)c(O)c1 | MT-4 | EC50 | IIIB |  | cytopathic effect / MTT | >100 µg/mL |
| CCC1=C(C(=O)OCC2CCCCC2)C(c2cc(Cl)c(OC)c(OC)c2)NC(=O)N1 | CEM | EC50 |  |  | p24 / ELISA | ≤1 µM |
| CCCCOC(=O)c1ccc(NC(=O)NCCc2ccccc2)cc1 | MT-4 | EC50 |  |  | cytopathic effect / XTT | >10 µg/mL |
| CCC1=C(C(=O)c2ccccc2)C(c2cccc(OC)c2)NC(=O)N1 | CEM | EC50 |  |  | p24 / ELISA | >5 µM |
| CC(C)CN(C[C@@H](O)[C@H](Cc1ccccc1)NC(=O)[C@H](CC(N)=O)NC(=O)c1ccc2ccccc2n1)S(=O)(=O)c1cc(S(=O)(=O)c2ccccc2)cs1 | CEM | EC90 | IIIB |  | p24 | ≤0.1 µM |
| CCc1c(Cc2cc(C)cc(C)c2)n(COCC#Cc2cccc(C#N)c2)c(=O)[nH]c1=O | MT-4 | EC50 | IIIB | K103N + Y181C | MTT | 8.5 µM |
| C#CCN(N=O)C(=O)NCCCC[C@H](NC(C)=O)C(=O)NCc1ccccc1 | CEM-IW + CEM | EC50 | IIIB |  | cytopathic effect / XTT | >100 µM |
| Cc1ncc(-c2cnc(OCCOc3cc(F)cc(F)c3)c(F)c2)c(N2CCC(C)(C)CC2)c1[C@H](OC(C)(C)C)C(=O)O | MT-2 | EC50 | NL4-3 |  | luminescence | 0.0017 µM |
| CCC1=C(C(=O)c2ccc(Cl)cc2)C(c2cccc(O)c2)NC(=O)N1 | CEM | EC50 |  |  | p24 / ELISA | >5 µM |
| O=C1[C@@H](c2ccccc2)NC(=S)N1c1ccccc1 | MT-4 | EC50 |  |  | cytopathic effect / XTT | >10 µg/mL |
| Cc1cn([C@H]2C[C@H](N=[N+]=[N-])[C@@H](CO)O2)c(=O)[nH]c1=O | C8166 | EC50 | IIIB |  | p24 / ELISA | 0.0297 µg/mL |
| CCCN(CCCC[C@H](NC(C)=O)C(=O)NCc1ccccc1)C(=O)N(C)N=O | CEM-IW + CEM | EC50 | IIIB |  | cytopathic effect / XTT | >100 µM |
| CCc1c(Cc2ccccc2C)n(COCC#Cc2ccc(NC(=O)CBr)cc2)c(=O)[nH]c1=O | MT-4 | EC50 | IIIB | EFV-resistant (K103R V179D P225H) | MTT | >41 µM |
| CC(C)CN(C[C@@H](O)[C@H](Cc1ccccc1)NC(=O)OCc1ccccc1)S(=O)(=O)c1ccc(F)cc1 | CEM | EC50 | IIIB |  | p24 | <10 µM |
| O=C(NCCc1ccccc1)Nc1nc(-c2ccc(Br)cc2)cs1 | MT-4 | EC50 |  |  | cytopathic effect / XTT | >100 µg/mL |
| CCC1=C(C(=O)OCC2CCCCC2)[C@H](c2ccc(OC(=O)c3cccnc3)cc2)NC(=O)N1 | CEM | EC50 |  |  | p24 / ELISA | ≤1 µM |
| S=C(NCCc1ccc(Cl)cc1)Nc1nccs1 | MT-4 | EC50 |  |  | cytopathic effect / XTT | <10 µg/mL |
| COC(=O)N[C@@H](Cc1ccccc1)[C@H](O)CN(CC(C)C)S(=O)(=O)c1ccc(Cl)c(Cl)c1 | CEM | EC50 | IIIB |  | p24 | <10 µM |
| CCC1=C(C(=O)OCC2CCCCC2)C(c2cc([N+](=O)[O-])ccc2Cl)NC(=O)N1 | CEM | EC50 |  |  | p24 / ELISA | >5 µM |
| C#CCN(N=O)C(=O)NCCC[C@H](NC(C)=O)C(=O)NCc1ccccc1 | CEM-IW + CEM | EC50 | IIIB |  | cytopathic effect / XTT | >100 µM |
| O=C1O[C@H]2[C@@H](OC(=O)c3cc(O)c(O)c(O)c3)[C@H](OC(=O)c3cc(O)c(O)c4c3C3C1=CC(=O)C(O)(O4)C3(O)O)[C@@H]1OC(=O)c3cc(O)c(O)c(O)c3-c3c(cc(O)c(O)c3O)C(O)OC[C@H]2O1 | MT-4 | EC50 | IIIB |  | cytopathic effect / MTT | >25 µg/mL |
| Cc1ncc(-c2ncc(NCCOc3ccccc3)c(N)n2)c(N2CCC(C)(C)CC2)c1[C@H](OC(C)(C)C)C(=O)O | MT-2 | EC50 | NL4-3 |  | luminescence | 0.02 µM |
| O=C(OC1OC2COC(=O)c3cc(O)c(O)c(O)c3-c3c(cc(O)c(O)c3O)C(=O)OC2C(OC(=O)c2cc(O)c(O)c(O)c2)C1OC(=O)c1cc(O)c(O)c(O)c1)c1cc(O)c(O)c(Oc2c(C(=O)OC3OC4COC(=O)c5cc(O)c(O)c(O)c5-c5c(cc(O)c(O)c5O)C(=O)OC4C(OC(=O)c4cc(O)c(O)c(O)c4)C3OC(=O)c3cc(O)c(O)c(O)c3)cc(O)c(O)c2O)c1 | MT-4 | EC50 | IIIB |  | cytopathic effect / MTT | >50 µg/mL |
| Cc1ncc(-c2ccc(OC(C)COCc3ccccc3)cn2)c(N2CCC(C)(C)CC2)c1[C@H](OC(C)(C)C)C(=O)O | MT-2 | EC50 | NL4-3 |  | luminescence | 0.0015 µM |
| CCc1c(Cc2cc(C)cc(C)c2)n(COCC#Cc2ccc(O[Si](c3ccccc3)(c3ccccc3)C(C)(C)C)cc2)c(=O)[nH]c1=O | MT-4 | EC50 | IIIB | K103N + Y181C | MTT | >100 µM |
| Cc1cc(OCCN(C)c2ccc(-c3cnc(C)c([C@H](OC(C)(C)C)C(=O)O)c3N3CCC(C)(C)CC3)nc2)ccc1F | MT-2 | EC50 | NL4-3 |  | luminescence | 0.004 µM |
| CCc1c(Cc2cc(C)cc(C)c2)n(COCC#CC#CCO[Si](c2ccccc2)(c2ccccc2)C(C)(C)C)c(=O)[nH]c1=O | MT-4 | EC50 | IIIB | K103N + Y181C | MTT | >76 µM |
| Cc1ncc(-c2cnc(OCC3CCCCC3)c(F)c2)c(N2CCC(C)(C)CC2)c1[C@H](OC(C)(C)C)C(=O)O | MT-2 | EC50 | NL4-3 |  | luminescence | 0.0061 µM |
| O=C(N[C@@H](Cc1ccccc1)[C@H](O)CN(CC1CCCC1)S(=O)(=O)c1ccc([N+](=O)[O-])cc1)O[C@@H]1CCOC1 | CEM | EC50 | IIIB |  | p24 | <1 µM |

Repeating the final 3 entries:

structure | cells | read-out | strain | mutations | read by | result
CCc1c(Cc2cc(C)cc(C)c2)n(COCC#CC#CCO[Si](c2ccccc2)(c2ccccc2)C(C)(C)C)c(=O)[nH]c1=O | MT-4 | EC50 | IIIB | K103N + Y181C | MTT | >76 µM
Cc1ncc(-c2cnc(OCC3CCCCC3)c(F)c2)c(N2CCC(C)(C)CC2)c1[C@H](OC(C)(C)C)C(=O)O | MT-2 | EC50 | NL4-3 |  | luminescence | 0.0061 µM
O=C(N[C@@H](Cc1ccccc1)[C@H](O)CN(CC1CCCC1)S(=O)(=O)c1ccc([N+](=O)[O-])cc1)O[C@@H]1CCOC1 | CEM | EC50 | IIIB |  | p24 | <1 µM